How the values were obtained:
Assay in all cases: Microbroth dilution MIC (CLSI)
P. aeruginosa ATCC 27853 = format: cell-based, Pseudomonas aeruginosa; details: tested form: HCl
Protocol: (§1) The chemical entities described in the present invention were assessed for their antimicrobial activity using a microbroth dilution assay as recommended by the CLSI (Methods for Dilution Antimicrobial Susceptibility Tests for Bacteria That Grow Aerobically, and Methods for Antimicrobial Susceptibility Testing of Anaerobic Bacteria, Clinical and Laboratory Standards Institute, Document M07-A8, and M11-A8, Wayne, PA 19087, USA, 2012.). Compounds were dissolved by using 100% DMSO. Serial two-fold dilutions of each compound were made by using 100% DMSO as the diluent.
(§2) A library of Gram-negative and Gram-positive microbes and their drug- and multidrug-resistant variants were employed as test organisms. The MIC (minimum inhibitory concentration) was determined as the lowest concentration of an individual drug that lead to no visible growth.

[1] = tested on: A. baumannii (ATCC 19606); format: cell-based, Acinetobacter baumannii; details: tested form: HCl
Protocol: as §1, §2

[2] = tested on: K. pneumoniae (ATCC 700603); format: cell-based, Klebsiella pneumoniae; details: tested form: HCl
Protocol: as §1, §2

E. coli ATCC 25922 = format: cell-based, Escherichia coli; details: tested form: HCl
Protocol: as §1, §2

S. aureus ATCC 29213 = format: cell-based, Staphylococcus aureus; details: tested form: HCl
Protocol: as §1, §2

E. faecium (ATCC 35667) = format: cell-based, Enterococcus faecium; details: E. faecium (ATCC 35667) Päivi; tested form: HCl
Protocol: as §1, §2

[3] = tested on: E. aerogenes (ATCC 13408); format: cell-based, Enterobacter aerogenes; details: tested form: HCl
Protocol: as §1, §2

Measured: MIC

Cc1[nH]c(C(=O)Nc2ccc(C(=O)NCC(=O)O)cc2N2CC[C@H](N)C2)c(Cl)c1Cl
≥64 µg/mL: P. aeruginosa ATCC 27853 | [1] | [2] | E. coli ATCC 25922 | S. aureus ATCC 29213 | E. faecium (ATCC 35667) | [3]

Source: patent US20250002455A1, “NEW N-PHENYLPYRROLAMIDE INHIBITORS OF DNA GYRASE AND TOPOISOMERASE IV WITH ANTIBACTERIAL ACTIVITY” (priority 2020, published 2025)
